Values quoted from earlier work as cited in PMC4287215 (Molecular imaging, 2009).

Sequences of proteins named here, by UniProt entry; tags and fusion partners are left off. Residues count along the entry.
UniProt P06756, 891-1048 partner limits assumed: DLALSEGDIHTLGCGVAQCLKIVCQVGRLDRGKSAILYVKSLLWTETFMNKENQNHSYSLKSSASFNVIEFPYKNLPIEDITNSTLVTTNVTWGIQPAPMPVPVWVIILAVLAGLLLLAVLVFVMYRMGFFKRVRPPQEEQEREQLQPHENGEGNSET
UniProt P06756, 31-889 limits assumed: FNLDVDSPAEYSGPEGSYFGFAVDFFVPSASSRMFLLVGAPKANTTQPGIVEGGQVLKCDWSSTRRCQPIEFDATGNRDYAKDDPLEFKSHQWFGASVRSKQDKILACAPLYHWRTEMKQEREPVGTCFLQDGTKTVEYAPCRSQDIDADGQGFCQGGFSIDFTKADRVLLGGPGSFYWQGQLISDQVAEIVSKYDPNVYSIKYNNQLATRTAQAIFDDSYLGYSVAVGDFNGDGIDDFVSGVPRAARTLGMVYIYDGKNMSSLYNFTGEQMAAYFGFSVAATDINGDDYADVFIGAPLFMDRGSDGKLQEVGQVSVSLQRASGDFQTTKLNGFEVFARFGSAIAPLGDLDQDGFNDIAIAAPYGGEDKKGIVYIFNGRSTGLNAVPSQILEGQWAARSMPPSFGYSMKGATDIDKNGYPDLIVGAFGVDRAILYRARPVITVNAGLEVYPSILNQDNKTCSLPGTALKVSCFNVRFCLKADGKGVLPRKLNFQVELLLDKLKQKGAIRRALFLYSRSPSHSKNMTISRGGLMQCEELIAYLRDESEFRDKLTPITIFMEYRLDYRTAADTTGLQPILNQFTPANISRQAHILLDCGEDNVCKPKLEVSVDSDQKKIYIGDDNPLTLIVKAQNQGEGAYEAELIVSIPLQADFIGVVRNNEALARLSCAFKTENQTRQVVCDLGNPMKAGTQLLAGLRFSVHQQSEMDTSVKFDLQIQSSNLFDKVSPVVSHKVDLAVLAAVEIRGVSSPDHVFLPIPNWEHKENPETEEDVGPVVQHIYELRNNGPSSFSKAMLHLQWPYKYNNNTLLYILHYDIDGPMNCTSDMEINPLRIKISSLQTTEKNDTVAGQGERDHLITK
UniProt P18564, 22-788: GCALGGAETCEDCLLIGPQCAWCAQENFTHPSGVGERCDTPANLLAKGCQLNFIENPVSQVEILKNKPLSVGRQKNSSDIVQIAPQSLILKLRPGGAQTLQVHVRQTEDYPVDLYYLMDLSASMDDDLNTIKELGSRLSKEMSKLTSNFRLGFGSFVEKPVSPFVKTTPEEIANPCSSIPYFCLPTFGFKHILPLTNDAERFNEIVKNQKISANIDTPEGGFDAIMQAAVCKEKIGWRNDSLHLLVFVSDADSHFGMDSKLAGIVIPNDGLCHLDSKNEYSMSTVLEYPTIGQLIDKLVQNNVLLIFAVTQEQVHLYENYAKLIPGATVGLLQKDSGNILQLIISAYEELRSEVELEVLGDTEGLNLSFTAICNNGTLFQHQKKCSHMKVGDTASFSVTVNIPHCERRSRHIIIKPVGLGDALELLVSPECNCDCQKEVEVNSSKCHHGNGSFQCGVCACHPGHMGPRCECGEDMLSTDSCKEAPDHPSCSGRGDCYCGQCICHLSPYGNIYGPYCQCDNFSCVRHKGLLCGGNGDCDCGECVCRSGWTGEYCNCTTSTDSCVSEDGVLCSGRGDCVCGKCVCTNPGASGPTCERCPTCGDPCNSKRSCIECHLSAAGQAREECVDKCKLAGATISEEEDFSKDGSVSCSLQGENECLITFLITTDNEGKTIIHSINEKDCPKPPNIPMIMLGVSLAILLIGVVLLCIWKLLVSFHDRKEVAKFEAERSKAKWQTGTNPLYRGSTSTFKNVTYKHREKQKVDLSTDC

Biological target: integrin αvβ6 (Homo sapiens, UniProt P06756+P18564)
Conditions: read-out: IC50 αvβ6

A20FMDV2 [Compound 2]
IC50: 3 ± 1 nM
